Test results: patent publication US20050123902A1, “Human papillomavirus inhibitors” (priority 2003, published 2005)

The chains behind the UniProt entries cited, without tags or fusion partners.
UniProt P03120, whole entry: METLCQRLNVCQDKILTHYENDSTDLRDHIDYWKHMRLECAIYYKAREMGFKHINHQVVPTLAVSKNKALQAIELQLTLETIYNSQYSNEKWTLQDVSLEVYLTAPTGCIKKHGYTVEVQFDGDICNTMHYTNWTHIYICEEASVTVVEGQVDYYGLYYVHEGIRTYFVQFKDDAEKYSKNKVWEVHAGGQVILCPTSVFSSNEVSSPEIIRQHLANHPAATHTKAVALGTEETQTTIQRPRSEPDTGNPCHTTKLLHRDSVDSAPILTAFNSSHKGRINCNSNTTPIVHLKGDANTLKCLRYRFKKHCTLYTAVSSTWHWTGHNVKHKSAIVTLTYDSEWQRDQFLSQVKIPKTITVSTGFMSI

Target: HPV-16 E2 protein (Human papillomavirus type 16, UniProt P03120)
Experiment: Determination of dissociation constants by surface plasmon resonance (Biacore 3000, captured GST-E2 fusion)
Conditions: read-out: dissociation constant, steady state model, PBST containing 2% (v/v) DMF
Description: Surface Plasmon Resonance Instrument. Surface plasmon resonance experiments were performed with a Biacore® 3000 Biosensor (Biacore AB, Uppsala, Sweden). To keep the instrument in good working condition, a series of washing steps were performed on a weekly basis. In addition to the prescribed maintenance washes, the fluidic system was primed three times in a row with the following reagents: 0.5% (w/v) SDS, 6 M urea, 1% (v/v) acetic acid, and 0.2 M NaHCO3. When not in use, a standby program injects water at a flow rate of 5 μL/minute to prevent salt build-up in the lines or integrated fluidic cartridge. Whenever running buffer was changed, the system was primed three times in order to equilibrate the sensor chip and the instrument.
Immobilization of anti-GST Antibody. A CM5 sensor chip was docked and the system was primed three times with filtered and degassed PBST containing 5% (v/v) DMF. Affinity purified and sterile filtered goat-anti-GST IgG (0.8 mg/mL in 150 mM NaCl) from the Biacore GST kit for fusion capture was diluted to 30 μg/mL in 10 mM sodium acetate, pH 5.0 (100 μL per immobilization). Two flow cells were activated with 1:1 NHS:EDC (N-hydroxysuccinimide:[…]) for 8 minutes at a flow rate of 5 μL/min using the “surface preparation: immobilization: amine coupling” wizard application. […]

Cn1nnnc1SC[C@H]1C[C@@H](c2ccc(CO)cc2)O[C@@H](c2ccc(CN)cc2)O1
Kd: 1.7 nM
